According to ChEMBL document CHEMBL2177067 (J Med Chem, 2012):

What was measured:
[1] = Selectivity index, ratio of CC50 for human HeLa cells to MIC for Bacillus anthracis; assay type: functional
[2] = Selectivity index, ratio of CC50 for human HeLa cells to MIC for Staphylococcus aureus ATCC 25923; assay type: functional

Row | Structure (SMILES) | Selectivity Index [1] | Selectivity Index [2]
1 | Cc1c(CCC(=O)O)c(=O)oc2c(C)c(OCc3ccc(-c4ccccc4)cc3)ccc12 | 66 | 33
2 | Cc1c(CCC(=O)O)c(=O)oc2c(C)c(OCc3ccc(-c4ccc(Cl)cc4)cc3)ccc12 | 40 | 20
